Reference: PubChem BioAssay AID1259414 (Drosophila RNAi Screening Center, 2018)
In all, the deposit lists about 24,000 reagents; below is a random part of those that have a named target and a result. Of all reagents, about 1,210 (5%) were called active. 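Inactive calls also include excluded dsRNAs with several or no targets, genes unexpressed in JW18, and well A1, regardless of score.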 Names joined by + are all predicted targets of the reagent.

Purpose: 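Fly genes that alter Wolbachia amount inside host cells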 (primary screen)
System: Drosophila JW18 cells infected with Wolbachia
Reagents: long dsRNA against Drosophila genes, 0.25 µg dsRNA per well of a 384-well plate
Timing: 5 days
Treatment: cells persistently infected with Wolbachia before knock-down; no added drug
Read-out: 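Automated imaging of bacterial rRNA staining divided by host cell count, reported as plate-normalised robust z-score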
Reading the numbers: Wolbachia per cell robust z: higher = more Wolbachia per host cell than the plate typical
Rule for the call: 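Active if absolute robust z reaches 1.5 in two or more of three replicates, leaving out multi- or no-target dsRNAs, genes unexpressed in JW18 and A1 wells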

| Wolbachia per cell robust z, rep 1 | Wolbachia per cell robust z, rep 2 | Wolbachia per cell robust z, rep 3 | call | target | PubChem SID |
| --- | --- | --- | --- | --- | --- |
| -1.19 | -2.62 | -1.52 | inactive | Nlg1 (Neuroligin 1) | SID104192277 |
| -0.542 | -8.6 | 0.373 | inactive | Nlg1 (Neuroligin 1) | SID104192324 |
| 0.256 | -2.73 | -0.537 | inactive | Nlg1 (Neuroligin 1) | SID104192325 |
| 0.532 | -0.173 | 0.715 | inactive | Nlg1 (Neuroligin 1) | SID104192331 |
| 0.642 | -0.0561 | -0.628 | inactive | CG3347 | SID104180389 |
| 0.513 | 0.452 | -0.958 | inactive | CG12253 | SID104181945 |
| -0.543 | 0.313 | 0.0682 | inactive | CG12253 | SID104205810 |
| -1.62 | -0.422 | -1.02 | inactive | IKKbeta (I-kappaB kinase beta) | SID104196506 |
| -0.499 | -0.155 | -2.14 | inactive | IKKbeta (I-kappaB kinase beta) | SID104218328 |
| -4.29 | -0.455 | -5.01 | active | CG1750 | SID104195032 |
| 0.787 | 0.777 | 1.17 | inactive | CG31457 | SID104202292 |
| -0.164 | 0.118 | 0.382 | inactive | CG31457 | SID104207773 |
| -1.17 | -3.67 | 0.379 | inactive | CG17202 | SID104202430 |
| 0.406 | -1.83 | 0.14 | inactive | CR40100 (pseudo) | SID104216297 |
| -0.0938 | 0.698 | -1.22 | inactive | Abcd1 (ATP binding cassette subfamily D member 1) | SID104196949 |
| -0.369 | -0.175 | -1.12 | inactive | CG14515 | SID104194659 |
| 0 | 0.735 | 0.173 | inactive | cerv (cervantes) | SID104199473 |
| 0.361 | 0.666 | 1.17 | inactive | cerv (cervantes) | SID104203866 |
| 0.0594 | -0.15 | 0.67 | inactive | CG32161 | SID104201683 |
| -1.01 | 0.624 | -0.647 | inactive | SdhAL (Succinate dehydrogenase, subunit A (flavoprotein)-like) | SID104190331 |
| 0.788 | -0.0489 | 0.113 | inactive | CG12491 + CG34105 | SID104183800 |
| 1.03 | 0.302 | -1.07 | inactive | Trmt112 (tRNA methyltransferase subunit 11-2) | SID104191477 |
| 2.21 | 0.265 | 0.663 | inactive | Polr3B (RNA polymerase III subunit B) | SID104187328 |
| -0.702 | -0.0728 | 0.772 | inactive | CG7402 | SID104190631 |
| -0.641 | -1.01 | -1.28 | inactive | Akh (Adipokinetic hormone) | SID104187930 |
| -0.536 | 0.0419 | -0.3 | inactive | Akh (Adipokinetic hormone) | SID104206977 |
| -0.0125 | -0.712 | -0.0721 | inactive | CG12288 | SID104181947 |
| -5.22 | 0.776 | 0.676 | inactive | Rcd4 (Reduction in Cnn dots 4) | SID104182389 |

Next part; the last 2 above are carried over.
| Wolbachia per cell robust z, rep 1 | Wolbachia per cell robust z, rep 2 | Wolbachia per cell robust z, rep 3 | call | target | PubChem SID |
| --- | --- | --- | --- | --- | --- |
| -0.0125 | -0.712 | -0.0721 | inactive | CG12288 | SID104181947 |
| -5.22 | 0.776 | 0.676 | inactive | Rcd4 (Reduction in Cnn dots 4) | SID104182389 |
| -0.387 | 0.629 | 0.889 | inactive | Paris (Parkin Interacting Substrate) | SID104180243 |
| -1.34 | 0.53 | -0.194 | inactive | Paris (Parkin Interacting Substrate) | SID104208094 |
| 0.46 | -2.77 | 0.541 | inactive | Loxl1 (Lysyl oxidase-like 1) | SID104194095 |
| -0.696 | -0.554 | -0.654 | inactive | Itpr (Inositol 1,4,5,-trisphosphate receptor) | SID104192146 |
| -1.07 | -0.379 | -0.686 | inactive | Itpr (Inositol 1,4,5,-trisphosphate receptor) | SID104207314 |
| 2.05 | 0.585 | 1.11 | inactive | Syx5 (Syntaxin 5) | SID104183224 |
| 1.01 | 0.854 | 1.25 | inactive | Syx5 (Syntaxin 5) | SID104218445 |
| -1.83 | -2.65 | 0.305 | inactive | CG42654 | SID104218928 |
| 0.338 | -7.13 | -0.419 | inactive | Aasdh (Aminoadipate-semialdehyde dehydrogenase) | SID104183259 |
| 0.829 | 0.538 | 1.22 | inactive | CR33929 (pseudo) | SID104215434 |
| 0.109 | -0.515 | -2.14 | inactive | CG4537 | SID104182548 |
| 0.398 | 0.0924 | -3.91 | inactive | CG14142 | SID104189937 |
| 1.02 | -0.408 | 0.0463 | inactive | CG14142 | SID104205202 |
| 0.567 | -6.24 | -0.493 | inactive | Nup153 (Nucleoporin 153kD) | SID104199696 |
| -0.75 | 0.908 | -0.482 | inactive | mRpS10 (mitochondrial ribosomal protein S10) | SID104195349 |
| -0.398 | 0.375 | 0.297 | inactive | Tsp42El (Tetraspanin 42El) | SID104185978 |
| -0.43 | -0.826 | -4.7 | inactive | TTLL12 (Tubulin tyrosine ligase-like 12) | SID104186347 |
| -5.04 | -0.347 | -0.76 | inactive | bab1 (bric a brac 1) | SID104188501 |
| -3.41 | -1.26 | -0.808 | inactive | bab1 (bric a brac 1) | SID104201513 |
| 2.11 | 0.129 | 0.423 | inactive | bab1 (bric a brac 1) | SID104204003 |
| 0.722 | -0.537 | 0.768 | inactive | nvy (nervy) | SID104184497 |
| -0.252 | -0.845 | -0.347 | inactive | Cpr64Ab (Cuticular protein 64Ab) | SID104188253 |
| 1.92 | 0.144 | 0.749 | inactive | Cpr64Ab (Cuticular protein 64Ab) | SID104203741 |
| 0.823 | -1.33 | -0.819 | inactive | CG3690 | SID104197962 |
| -5.21 | -0.0722 | -3.46 | inactive | CG3690 | SID104198433 |
| -3.58 | 2.59 | 2.32 | active | alphaTub84D (alpha-Tubulin at 84D) | SID104192415 |
| 1.92 | 2.11 | 1.88 | active | alphaTub84D (alpha-Tubulin at 84D) | SID104202765 |
| -1.04 | -0.166 | 0.0465 | inactive | alphaTub84D (alpha-Tubulin at 84D) | SID104216526 |
| 0.317 | -4.21 | -0.863 | inactive | nxf2 (nuclear RNA export factor 2) | SID104190195 |
| -3.49 | -0.329 | -0.505 | inactive | nxf2 (nuclear RNA export factor 2) | SID104205265 |
| -3.5 | -0.451 | -3.14 | inactive | fabp + sea | SID104195906 |
| -0.485 | -1.12 | -0.709 | inactive | CG7675 | SID104196072 |
| -1.27 | -1.25 | -1.47 | inactive | CG7675 | SID104205441 |
| 0.908 | -1.2 | -1.05 | inactive | Lpin (Lipin) | SID104187033 |
| 0.191 | -1.97 | -0.393 | inactive | Tsen34 (tRNA splicing endonuclease subunit 34) | SID104202289 |
| 0.479 | 0.277 | 0.735 | inactive | ebd1 (earthbound 1) | SID104188357 |
| -1.56 | -7.44 | -1.45 | active | ebd1 (earthbound 1) | SID104207983 |
| -0.713 | -1.25 | -0.451 | inactive | Irk3 (Inwardly rectifying potassium channel 3) | SID104181839 |
| -0.27 | 0.901 | -0.131 | inactive | RNF220 (ring finger protein 220) | SID104195444 |
| -0.758 | -1.1 | -1.69 | inactive | RNF220 (ring finger protein 220) | SID104206561 |
